Taken from: PubChem BioAssay AID504761 (Drosophila RNAi Screening Center, 2011)
Test: 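Genome-wide fly cell screen for genes dengue virus requires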 (primary screen). Cell system: D.Mel-2 cells from Drosophila. Reagents: long dsRNA against Drosophila genes. Conditions: infection with dengue virus type 2; dose and infection time not stated. Measurement: 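Per well on two replicate plates, imaging gave the percent of cells positive for viral envelope protein, ranked by infection, and a nuclear count of cells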. Scale: infection score: higher = more virus-infected cells; cell count: higher = more cells in the well. Active means: 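Very low infection ranking in both replicate wells (chance probability at most 0.065), then a retest showing infection dropped 1.5-fold or more at p below 0.05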. Meaning of the calls: active = confirmed: knock-down lowers infection; inactive = not picked or not confirmed.
The screen tested about 22,000 reagents; this is an unselected part of those that have a named target and a result. Over the whole deposit, 116 (0.52%) are marked active. 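Calls depend on retest data that are not deposited; infection was ranked per plate without normalising between plates; the unit of the infection score is not given.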 Raw values are not corrected between plates. Further read-outs or replicates are left out here. Not stated in the record: the amount of reagent, the time to read-out.

After knock-down of mtd (mustard) [DRSC12131] the results were infection score, replicate 1 = 20.7; cell count, replicate 1 = 5643; inactive.
Silencing of mtd (mustard) [DRSC12380] gave: infection score, replicate 1 = 8.84; cell count, replicate 1 = 6505; inactive.
Against mtd (mustard) [DRSC12381] the deposit lists infection score, replicate 1 = 5.04; cell count, replicate 1 = 7026; inactive.
Against mtd (mustard) [DRSC29132], the entry reads cell count, replicate 1 = 380; inactive.
Against CG5773 [DRSC06955], the entry reads infection score, replicate 1 = 7.24; cell count, replicate 1 = 6876; inactive.
CG5773 [DRSC28940] gave cell count, replicate 1 = 379; inactive.
Against Or74a (Odorant receptor 74a) [DRSC11245] the deposit lists infection score, replicate 1 = 1.87; cell count, replicate 1 = 6301; inactive.
CG9570 [DRSC20687] scored infection score, replicate 1 = 1.94; cell count, replicate 1 = 6123; inactive.
CG10359 [DRSC08156] scored infection score, replicate 1 = 10.4; cell count, replicate 1 = 3834; inactive.

Records listed so far whose gene name begins with C or c (4):
CG5773 [DRSC06955] — infection score, replicate 1: 7.24; cell count, replicate 1: 6876; Outcome: inactive
CG5773 [DRSC28940] — cell count, replicate 1: 379; Outcome: inactive
CG9570 [DRSC20687] — infection score, replicate 1: 1.94; cell count, replicate 1: 6123; Outcome: inactive
CG10359 [DRSC08156] — infection score, replicate 1: 10.4; cell count, replicate 1: 3834; Outcome: inactive

The results go on:
CG3078 [DRSC18531] showed infection score, replicate 1 = 5.23; cell count, replicate 1 = 6921; inactive.
Depletion of CG3078 [DRSC23471] resulted in: infection score, replicate 1 = 6.96; cell count, replicate 1 = 6451; inactive.
CG14357 [DRSC14820] scored infection score, replicate 1 = 0.97; cell count, replicate 1 = 6190; inactive.
Against CG14357 [DRSC28685], the values are infection score, replicate 1 = 19.7; cell count, replicate 1 = 4321; inactive.
With knock-down of jbug (jitterbug) [DRSC03952], the record shows infection score, replicate 1 = 2.49; cell count, replicate 1 = 5713; inactive.
Against jbug (jitterbug) [DRSC04114], the values are infection score, replicate 1 = 3.69; cell count, replicate 1 = 6510; inactive.
With knock-down of jbug (jitterbug) [DRSC04167] the results were infection score, replicate 1 = 2.47; cell count, replicate 1 = 6524; inactive.
jbug (jitterbug) [DRSC04388] showed infection score, replicate 1 = 4.02; cell count, replicate 1 = 6894; inactive.
Depletion of jbug (jitterbug) [DRSC29978] gave: infection score, replicate 1 = 8.36; cell count, replicate 1 = 6531; inactive.
